Measured values from several laboratories, pooled; numbers as filed in NIAID ChemDB.

Common to all: tests on isolated targets; target: CCR5; method: radiometric; read-out: IC50

ICn: concentration for n% inhibition.

compound | result
CCN(C(=O)Cc1ccc(S(C)(=O)=O)cc1)C1CCN(CCC(c2ccccc2)N2CCN(S(=O)(=O)c3cccs3)CC2)CC1 | 0.002 µM
CN1CC(C(=O)N(CCCN2CCC(Oc3ccccc3)CC2)c2ccccc2)CC1=O | 1.6 µM
CCN(C(=O)Cc1ccc(S(C)(=O)=O)cc1)C1CCN(CCC(c2ccccc2)N2CCN(S(=O)(=O)CC(F)(F)F)CC2)CC1 | 0.006 µM
C=CCN(Cc1ccc(OC)cc1)C1CCN(C[C@H]2CN(C(=O)C3CCCC3)C[C@]2(O)c2ccccc2)CC1 | >1 µM
CCCCOCCOc1ccc(-c2ccc3c(c2)C=C(C(=O)Nc2ccc(SCc4cncn4CCC)cc2)CCN3CC(C)C)cc1 | 0.019 µM
O=C(c1ccccc1)N1CCC(C(=O)N(CCCN2CCC(Cc3ccccc3)CC2)c2ccccc2)CC1 | 0.033 µM
CCCCOCCOc1ccc(-c2ccc3c(c2)C=C(C(=O)Nc2ccc([C@H](O)c4cccc[n+]4[O-])cc2)CCS3(=O)=O)cc1 | 0.43 µM
O=C(C1CCCCC1)N1C[C@@H](CN2CCC(c3ccccc3)CC2)[C@](O)(c2ccccc2)C1 | ~2 µM
CN1CC(C(=O)N(CCCN2CCC(Cc3ccccc3)CC2)c2ccc(Cl)c(Cl)c2)CC1=O | <1 µM
CCN(C(=O)Cc1ccc(S(C)(=O)=O)cc1)C1CCN(CCC(c2ccccc2)C2CCN(C(=O)c3ccc(Cl)cc3)CC2)CC1 | 0.002 µM
CC(=O)N1CCC(C(=O)N(CCCN2CCC(Cc3ccccc3)CC2)c2ccc(C)c(Cl)c2)CC1 | 0.00062 µM
Cc1ccc(-c2ccc3c(c2)C=C(C(=O)Nc2ccc(CP4(=O)OCCCO4)cc2)CCO3)cc1 | 0.4 µM
CCCOCCOc1ccc(-c2ccc3c(c2)C=C(C(=O)Nc2ccc(CN(C)C4CCOCC4)cc2)CCN3C)cc1 | 0.068 µM
CN1CC(C(=O)N(CCCN2CCC(Cc3ccccc3)CC2)c2ccccc2)CC1=O | <1 µM
Cc1ccc(-c2ccc3c(c2)C=C(C(=O)Nc2ccc(CN(C)C4CCOCC4)cc2)CCC3)cc1 | 0.95 µM
CC(=O)N1CCC(C(=O)N(CCCN2CCC(Cc3ccc(F)cc3)CC2)c2ccc(C(C)C)c(Cl)c2)CC1 | 0.018 µM
CN1CC(C(=O)N(CCCN2CCN(Cc3ccccc3)CC2)c2ccccc2)CC1=O | 1.9 µM
Cc1ccc(N(CCCN2CCC(Cc3ccccc3)CC2)C(=O)Nc2ccc(Cl)cc2)cc1 | 0.011 µM
CCN(C(=O)Cc1ccc(S(C)(=O)=O)cc1)C1CCN(CCC(c2ccccc2)C2CCN(S(=O)c3ccccc3)CC2)CC1 | 0.001 µM
CC(C)c1ccc(NC(=O)N(CCCN2CCC(Cc3ccc(F)cc3)CC2)c2ccccc2)cc1 | 0.076 µM
Cc1ccc(-c2ccc3c(c2)C=C(C(=O)Nc2ccc(C[N+](C)(C)C4CCOCC4)cc2)CCC3)cc1 | 0.0014 µM
CCCCOCCOc1ccc(-c2ccc3c(c2)C=C(C(=O)Nc2ccc(S(=O)Cc4nncn4C)cc2)CCN3CC(C)C)cc1 | 0.0044 µM
Cc1ccc(-c2ccc3c(c2)C=C(C(=O)Nc2ccc(CN(C)C4CCOCC4)cc2)CCS3)cc1 | 0.8 µM
C=CCN(C1CCN(C[C@H]2CN(C(=O)C3CCCC3)C[C@]2(O)c2ccccc2)CC1)S(=O)(=O)c1ccc(C)cc1 | 0.0534 µM
CN1CC(C(=O)N(CCCN2CCC(C(=O)c3ccc(F)cc3)CC2)c2ccccc2)CC1=O | >1 µM
CCCCOCCOc1ccc(-c2ccc3c(c2)C=C(C(=O)Nc2ccc([C@H](O)c4cccc[n+]4[O-])cc2)CCN3Cc2cnn(C)c2)cc1 | 0.017 µM
CCCOc1ccc(-c2ccc3c(c2)C=C(C(=O)Nc2ccc(CN(C)C4CCOCC4)cc2)CCS3(=O)=O)cc1 | 0.035 µM
CCN(C(=O)Cc1ccc(S(C)(=O)=O)cc1)C1CCN(CCC(c2ccccc2)N2CCN(C(=O)Nc3ccccc3)CC2)CC1 | 0.059 µM
Cc1ccc(-c2ccc3c(c2)C=C(C(=O)Nc2ccc(CN(C)C4CCOCC4)cc2)CCS3(=O)=O)cc1 | 0.2 µM
CN1CC(C(=O)N(CCCN2CCC(Cc3ccccc3)CC2)c2ccc(Cl)c(Cl)c2)CC1=O | 0.057 µM
C=C(C)[C@H]1CC[C@@]2(C)CC[C@]3(C)C[C@@H]4[C@H](/C(C=O)=C\C[C@H]3[C@H]12)[C@H](O)C[C@@H]4C | >33 µM
CN1CC(C(=O)N(CCCCCN2CCC(C(=O)c3ccc(F)cc3)CC2)c2ccccc2)CC1=O | 5 µM
CCOC(=O)c1ccc(NC(=O)N(CCCN2CCC(Cc3ccc(F)cc3)CC2)c2ccccc2)cc1 | 0.28 µM
CN1CC(C(=O)N(CCCN2CCC(Cc3ccc(F)cc3)CC2)c2ccc(Cl)c(Cl)c2)CC1=O | <1 µM
Cc1ccc(-c2ccc3c(c2)C=C(C(=O)Nc2ccc(CN(C)C4CCOCC4)cc2)CCS3=O)cc1 | 0.3 µM
O=C1CC(C(=O)N(CCCN2CCC(Cc3ccccc3)CC2)c2ccccc2)CN1CC(F)(F)F | <1 µM
CC(=O)N1CCC(C(=O)N(CCCN2CCC(Cc3ccccc3)CC2)c2ccc(C)c(Cl)c2)CC1 | 0.00062 µM
C=C(C)[C@H]1CC[C@@]2(C)CC[C@]3(C)C[C@H]4[C@@H](C)C=C[C@H]4/C(C(=O)O)=C\C[C@H]3[C@H]12 | >33 µM
Cc1ccc(-c2ccc3c(c2)C=C(C(=O)Nc2ccc(C[N+](C)(C)C4CCOCC4)cc2)CCC3)cc1 | 0.0014 µM
CC(=O)N1CCC(C(=O)N(CCCN2CCC(Cc3ccc(F)cc3)CC2)c2ccc(C(C)C)c(Cl)c2)CC1 | 0.018 µM
Cc1ccc(-c2ccc3c(c2)C=C(C(=O)Nc2ccc(CN4CCCCC4)cc2)CCO3)cc1 | 4 µM
CCCCOCCOc1ccc(-c2ccc3c(c2)C=C(C(=O)Nc2ccc([C@H](O)c4cccc[n+]4[O-])cc2)CCN3CC(C)C)cc1 | 0.015 µM
Cc1ccc(-c2ccc3c(c2)C=C(C(=O)Nc2ccc(CN(C)CCCO)cc2)CCO3)cc1 | 0.73 µM
CN1CC(C(=O)N(CCCN2CCC(Cc3ccccc3)CC2)c2ccccc2)CC1=O | 0.48 µM
CCCCOCCOc1ccc(-c2ccc3c(c2)C=C(C(=O)Nc2ccc(S(=O)Cc4cnccn4)cc2)CCN3CC(C)C)cc1 | 0.046 µM
c1ccc(CC2CCN(CCCNc3ccccc3)CC2)cc1 | >10 µM
CCCCOCCOc1ccc(-c2ccc3c(c2)C=C(C(=O)Nc2ccc(CN(C)C4CCOCC4)cc2)CCN3Cc2nccn2C)cc1 | 0.012 µM
O=C(OCc1ccccc1)N(CCCN1CCC(Cc2ccccc2)CC1)c1ccccc1 | 2 µM
Cc1ccc(-c2ccc3c(c2)C=C(C(=O)Nc2ccc(CN4CCCCC4)cc2)CCC3)cc1 | 2.6 µM
CC(=O)N1CCC(C(=O)N(CCCCN2CCC(Cc3ccc(F)cc3)CC2)c2ccc(Cl)c(Cl)c2)CC1 | 0.052 µM
COc1ccc(CC2CCN(CCCN(C(=O)C3CCN(S(C)(=O)=O)CC3)c3ccc(Cl)c(Cl)c3)CC2)cc1 | 0.0079 µM
CCCCOCCOc1ccc(-c2ccc3c(c2)C=C(C(=O)Nc2ccc(S(=O)Cc4ccccn4)cc2)CCN3CC(C)C)cc1 | 0.038 µM
CN1CC(C(=O)N(CCCCN2CCC(C(=O)c3ccc(F)cc3)CC2)c2ccccc2)CC1=O | 3.2 µM
O=C1CC(C(=O)N(CCCN2CCC(Cc3ccccc3)CC2)c2ccccc2)CN1c1ccccc1 | <1 µM
CN1CC(C(=O)N(CCCN2CCC(Cc3ccccc3)CC2)c2ccccc2)CC1=O | 0.48 µM
CCCCOCCOc1ccc(-c2ccc3c(c2)C=C(C(=O)Nc2ccc(S(=O)Cc4ncnn4C)cc2)CCN3CC(C)C)cc1 | 0.035 µM
CCCCOCCOc1ccc(-c2ccc3c(c2)C=C(C(=O)Nc2ccc(C(O)c4cccc[n+]4[O-])c(OC)c2)CCN3CC(C)C)cc1 | 0.022 µM
O=C(CCc1ccccc1)N(CCCN1CCC(Cc2ccccc2)CC1)c1ccccc1 | 0.92 µM
Cc1ccc(-c2ccc3c(c2)C=C(C(=O)Nc2ccc(Cc4cccc[n+]4[O-])cc2)CCO3)cc1 | 1.1 µM
CN1CC(C(=O)N(CCCN2CCC(Cc3ccccc3)CC2)c2ccccc2)CC1=O | 0.48 µM
CCCCOCCOc1ccc(-c2ccc3c(c2)C=C(C(=O)Nc2ccc([S@](=O)Cc4cncn4CCC)cc2)CCN3CC(C)C)cc1 | 0.0068 µM

The first 8 rows once more:

compound	result
CCN(C(=O)Cc1ccc(S(C)(=O)=O)cc1)C1CCN(CCC(c2ccccc2)N2CCN(S(=O)(=O)c3cccs3)CC2)CC1	0.002 µM
CN1CC(C(=O)N(CCCN2CCC(Oc3ccccc3)CC2)c2ccccc2)CC1=O	1.6 µM
CCN(C(=O)Cc1ccc(S(C)(=O)=O)cc1)C1CCN(CCC(c2ccccc2)N2CCN(S(=O)(=O)CC(F)(F)F)CC2)CC1	0.006 µM
C=CCN(Cc1ccc(OC)cc1)C1CCN(C[C@H]2CN(C(=O)C3CCCC3)C[C@]2(O)c2ccccc2)CC1	>1 µM
CCCCOCCOc1ccc(-c2ccc3c(c2)C=C(C(=O)Nc2ccc(SCc4cncn4CCC)cc2)CCN3CC(C)C)cc1	0.019 µM
O=C(c1ccccc1)N1CCC(C(=O)N(CCCN2CCC(Cc3ccccc3)CC2)c2ccccc2)CC1	0.033 µM
CCCCOCCOc1ccc(-c2ccc3c(c2)C=C(C(=O)Nc2ccc([C@H](O)c4cccc[n+]4[O-])cc2)CCS3(=O)=O)cc1	0.43 µM
O=C(C1CCCCC1)N1C[C@@H](CN2CCC(c3ccccc3)CC2)[C@](O)(c2ccccc2)C1	~2 µM

Rows are shuffled and stem from different studies.